This is an account of results in US20230302100A1.

The target of this test is denosumab (XGEVA). Put plainly: cell-based or functional assay.

For the substance “pCART124 (IdeS with N terminal methionine and histidine tag) (enzyme)”, the Conc. of enzyme for 2nd IgG2 (XGEVA) heavy chain cleavage (scIgG to F(ab')2), SDS-PAGE worked out at 1100 ng/mL and the EC50, potency ELISA came to 0.225 µg/mL.
